A mixed list of measured activities; the numbers were collected in NIAID ChemDB.

All rows: tests in culture; agent: Mycobacterium avium; measure: MIC

Lines come from different laboratories, so protocols vary.

smiles	strain	setting	result
CC(C)N=C(N)/N=C(\N)NOCCCOc1ccc(Cl)c(Cl)c1	Farino	-	<0.1 µg/mL
O=C(Nc1cnccn1)c1ccc(Cl)cc1O	MY330/88	-	250 µM
COC(=O)c1cnccn1	330/88	21 d	>500 µM
CCOc1ccc(NC(=O)OCCN(C)C)cc1	MY330/88	-	>1000 µM
NC(=S)N=Nc1c(S)n(-c2ccccc2)c2ccccc12	CNCTC D5/93	-	63 µM
CCCCCCOc1ccccc1NC(=O)OCCN1CCCCC1	MY330/88	-	62.5 µM
CCn1c(S)c(N=NC(N)=O)c2ccccc21	CNCTC D5/93	-	125 µM
Cc1cccc(CSc2ncn[nH]2)c1	MY330/88	-	250 µM
CCCCCOc1ccc(NC(=O)OC(C)CN2CCCCC2)cc1	MY330/88	-	62.5 µM
O=C(NCc1cccc(Br)c1)c1ccc(Br)cc1O	MY330/88	-	32 µg/mL
CCCCCCCOc1cccc(NC(=O)OC(C)CN2CCCCC2)c1	MY330/88	-	16 µM
O=C(Nn1cncn1)c1cc(Br)ccc1O	MY330/88	-	1000 µM
O=C(Nc1ccc(F)cc1)c1ncccc1O	CNCTC MY330/88	-	125 µM
CCn1c(S)c(N=NC(N)=[NH2+])c2ccccc21	CNCTC D5/93	-	250 µM
CCCCCCOc1cccc(NC(=O)OC(COCC)CN2CCCCC2)c1	MY330/88	-	250 µM
NC(=O)c1cnccn1	330/88	21 d	>1000 µM
CCCCCCOc1cccc(NC(=O)OCCN2CCCCC2)c1	MY330/88	-	16 µM
Oc1ccccc1C(=S)NCc1cccc(C(F)(F)F)c1	MY330/88	-	0.5 µg/mL
CCCCCCCCCCOc1ccc(NC(=O)OCCN2CCOCC2)cc1	MY330/88	-	8 µM
COc1ccc(C(=O)Nc2nc(C)cs2)c(O)c1	MY330/88	-	250 µM
Oc1ccc(Cl)cc1C(=S)NCc1ccc(Br)cc1	MY330/88	-	2 µg/mL
Cc1ccc(CNC(=O)c2ncccc2S)cc1	CNCTC MY330/88	-	16 µM
Clc1ccc(CSc2ncn[nH]2)cc1	MY330/88	-	500 µM
O=C(NCc1ccc(Cl)c(Cl)c1)c1ncccc1S	CNCTC MY330/88	-	32 µM
O=C(NCc1ccc(Br)cc1)c1cc(Cl)ccc1O	MY330/88	-	32 µg/mL
O=C(Nc1ccc(Cl)cc1)c1ncccc1O	CNCTC MY330/88	-	62.5 µM
NNC(=O)c1ccncc1	330/88	14 d	>250 µM
Cc1ccc(O)c(C(=S)NCc2ccccc2)c1	MY330/88	-	1 µg/mL
O=C(NCc1cccc([N+](=O)[O-])c1)c1ncccc1O	CNCTC MY330/88	-	250 µM
O=C(Oc1ccc(Cl)cc1C(=O)Nc1ccc(C(F)(F)F)cc1)c1cnccn1	330/88	14 d	2 µM
COc1ccccc1NC(=O)OCCN1CCOCC1	MY330/88	-	>1000 µM
CCCCCCOc1ccccc1NC(=O)OC(C)CN1CCCCC1	MY330/88	-	62.5 µM
Cc1csc(NC(=O)c2cc(Br)ccc2O)n1	MY330/88	-	250 µM
O=C(NCc1ccc(Cl)cc1)c1ncccc1O	CNCTC MY330/88	-	125 µM
CCCCCOc1cccc(NC(=O)OCCN2CCCCC2)c1	MY330/88	-	62.5 µM
Clc1ccc2c(c1)nc1cc(Nc3ccccc3)c(=NC3CCCCC3)cc-1n2-c1ccccc1	1389	-	3.3 µg/mL
O=C(NCc1ccc(Br)cc1)c1ncccc1S	CNCTC MY330/88	-	16 µM
Oc1ccccc1C(=S)NCc1ccc(F)cc1	MY330/88	-	1 µg/mL
CCCCCN1C(=S)C(=O)c2ccccc21	CNCTC MY80/72	-	63 µM
O=C(NCc1ccc(C(F)(F)F)cc1)c1ncccc1O	CNCTC MY330/88	-	62.5 µM
CC(C)(C)c1ccc(CNC(=S)c2c(O)cc(Cl)cc2Cl)cc1	MY330/88	-	62.5 µg/mL
CCCCCCCOc1ccccc1NC(=O)OCCN1CCCCCC1	MY330/88	-	32 µM
CCOc1c(N2CCC(C(C)(C)N)C2)c(F)cc2c(=O)c(C(=O)O)cn(C3CC3)c12	RG3	-	0.25 µg/mL
NC(=S)c1ccc(CSc2ncn[nH]2)cc1	MY330/88	-	250 µM
O=C(Oc1cc(Cl)ccc1C(=O)Nc1ccc(Cl)c(Cl)c1)c1cnccn1	330/88	21 d	16 µM
CC(C)(C)n1cc(C(=O)O)c(=O)c2cc(F)c(N3CCNCC3)nc21	101	-	1 µg/mL
COc1ccc(C(=O)Nc2cncs2)c(O)c1	MY330/88	-	500 µM
Cn1cnnc1SCc1cc([N+](=O)[O-])cc([N+](=O)[O-])c1	MY330/88	-	>1000 µM

The first 7 rows once more:

smiles	strain	setting	result
CC(C)N=C(N)/N=C(\N)NOCCCOc1ccc(Cl)c(Cl)c1	Farino	-	<0.1 µg/mL
O=C(Nc1cnccn1)c1ccc(Cl)cc1O	MY330/88	-	250 µM
COC(=O)c1cnccn1	330/88	21 d	>500 µM
CCOc1ccc(NC(=O)OCCN(C)C)cc1	MY330/88	-	>1000 µM
NC(=S)N=Nc1c(S)n(-c2ccccc2)c2ccccc12	CNCTC D5/93	-	63 µM
CCCCCCOc1ccccc1NC(=O)OCCN1CCCCC1	MY330/88	-	62.5 µM
CCn1c(S)c(N=NC(N)=O)c2ccccc21	CNCTC D5/93	-	125 µM

An empty or dashed field is not shown.